# T1: Full length UL16 on transfected 293 EBNA cells (human cytomegalovirus, UniProt P16757 27-230)
# T1 construct: whole, on cells; also called UL16 FL
# T1 sequence: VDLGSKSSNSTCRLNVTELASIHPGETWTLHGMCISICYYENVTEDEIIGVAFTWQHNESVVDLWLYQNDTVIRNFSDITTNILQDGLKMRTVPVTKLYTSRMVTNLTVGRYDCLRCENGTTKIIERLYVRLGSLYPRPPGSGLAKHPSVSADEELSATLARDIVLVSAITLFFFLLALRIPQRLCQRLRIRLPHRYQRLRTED
# Target: T1, Full length UL16 on transfected 293 …
# Assay: flow cytometry, transfected 293 EBNA cells, 2 µg Fc protein + goat anti-human IgG PE
binder,measurement,value
"hCD40/Fc (Fc fusion, human, UniProt P25942 21-193, looked up, Control Fc construct; not shown: Fc portion not described) EPPTACREKQYLINSQCCSLCQPGQKLVSDCTEFTETECLPCGESEFLDTWNRETHCHQHKYCDPNLGLRVQQKGTSETDTICTCEEGWHCTSEACESCVLHRSCSPGFGVKQIATGVSDTICEPCPVGFFSNVSSAFEKCHPWTSCETKDLVVQQAGTNKTDVVCGPQDRLR",Mean Fluorescence Intensity (MFI),11.5 MFI

# Source: patent publication US20030147847A1 (IMMUNEX, published 2003)
